Each structure is given as a SMILES string. ± gives the standard deviation of the averaged measurements. This is a selection; strong and weak results do not stand in their true shares.

This experiment deals with E. coli TESEC Alr+ wild-type control. Briefly: growth (OD600 after 10 h); higher = more growth (less inhibition). The note with it: compound 0.1 mM; raw OD600 reference: median of DMSO wells 0.49, cell-free background 0.052. The procedure: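 TESEC Mtb Alr E. coli (ΔaraC ΔtolC ΔentC Δalr ΔdadX, arabinose-inducible Mtb Alr) or the Alr+ wild-type control strain, grown in defined M9-fructose medium without D-alanine in 96-well plates with Prestwick library compounds at 0.1 mM and 1% DMSO. Low Alr induction is 0.1 µM arabinose and high induction is 10 mM arabinose.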
With `COc1cc(Br)c(C[N+]2(CCOCCC3CCC4CC3C4(C)C)CCOCC2)cc1OC` (stereo unspecified) [Pinaverium bromide], the growth came to 0.0476 ± 0.00064.

These data come from the supplement of paper PMC9262897, “Low-cost anti-mycobacterial drug discovery using engineered E. coli” (Nature Communications, 2022).
